Measured values: patent US9132129B2, “Antiviral compounds” (KATHOLIEKE UNIVERSITEIT LEUVEN, priority 2010, dated 2015)

Experiments:
[1] = target: His6-tagged integrase / MBP-fused Δ325 integrase binding domain of LEDGF (Human immunodeficiency virus type 1 group M subtype B (isolate NY5) (HIV-1), UniProt P12497); experiment: HTRF interaction assay (LEDGF-integrase interaction); conditions: His6-tagged integrase 78 nM
Experimental: Afterwards 8.3 nM of europium cryptate conjugated anti-MBP monoclonal antibody and 17 nM anti-His antibody conjugated with the acceptor fluorophore d2.

[2] = target: His6-tagged HIV-1 integrase / flag-LEDGF/p75 interaction (Human immunodeficiency virus type 1 group M subtype B (isolate NY5) (HIV-1), UniProt P12497); experiment: Alpha Screen interaction assay (LEDGF-integrase interaction); format: binding; conditions: His6-tagged integrase 300 nM, flag-LEDGF/p75 100 nM; read-out: Alphascreen IC50

**Q.** Which IC50 [1] does the source give for `CCCC(C(=O)O)c1c(C)nc2cc3c(cc2c1-c1ccc(C)cc1)CCC3` (centres unmarked) [Cpd012, 2-(2-methyl-4-p-tolyl-7,8-dihydro-6H-cyclopenta[g]quinolin-3-yl)pentanoic acid] here?
**A.** 4.4 µM

**Q.** What about the IC50 [2] of the same molecule?
**A.** 1080 nM
